Test results taken from PMC3542638.

Columns and labels:
Assay in all cases: purified protein
Conditions in all cases: 30.0 °C
CC[C@@H](OC(C)=O)C(=O)O = system: CC[C@@H](OC(C)=O)C(=O)O
CC(=O)O[C@H](CO)C(=O)O = system: CC(=O)O[C@H](CO)C(=O)O
CC(=O)OCC(=O)O = system: CC(=O)OCC(=O)O
[1] = system: CC(=O)O[C@@H](C(=O)O)c1ccccc1

Oant2987 (Brucella anthropi ATCC 49188)
Km (CC[C@@H](OC(C)=O)C(=O)O): 1.2 ± 0.1 mM
Km (CC(=O)O[C@H](CO)C(=O)O): 2.1 ± 0.5 mM
kcat/Km (CC(=O)O[C@H](CO)C(=O)O): 300 M⁻¹ s⁻¹
Km (CC(=O)OCC(=O)O): 1.1 ± 0.2 mM
kcat/Km (CC(=O)OCC(=O)O): 4200 M⁻¹ s⁻¹
Km [1]: 0.7 ± 0.1 mM
kcat/Km [1]: 180000 M⁻¹ s⁻¹
